A mixed list of measured activities; the numbers were collected in NIAID ChemDB.

All rows: tests on isolated targets; species: Hepatitis C virus

Neighbouring rows are from separate reports. Percent inhibition refers to the dose given; in toxicity tests it is the harm to the cells. ICn is the concentration giving n% inhibition. a–b is a range or a potency band.

{"compound": "CC(C)CC(=O)N(Cc1ccccc1)c1cc(-c2ccccc2)sc1C(=O)O", "target": "NS3 ATPase", "read-out": "IC50", "value": "<5 µM"}
{"compound": "CNC(=O)c1c(-c2ccc(F)cc2)oc2cc(C)c(OC)cc12", "target": "Nonstructural protein 5B", "read-out": "IC50", "value": "≤0.5 µM"}
{"compound": "CCc1ccc(-c2ccc(OC)cc2-c2ccc3cc(-c4nc5cc(C(=O)O)ccc5n4C4CCCCC4)ccc3n2)cc1", "target": "NS5B polymerase", "read-out": "inhibition", "dose": "100 µM", "value": "101%"}
{"compound": "C[C@@H](NC(=O)Nc1cccc(-c2nc(C(=O)O)c(O)c(=O)[nH]2)c1)c1cccc2ccccc12", "target": "HCV polymerase", "read-out": "IC50", "value": "<100 µM"}
{"compound": "Cc1ccccc1S(=O)(=O)Nc1cc(-c2ccc(CO)cc2)sc1C(=O)O", "target": "NS3 ATPase", "read-out": "IC50", "value": "<5 µM"}
{"compound": "O=C(O)c1nc(-c2cc(Br)cs2)[nH]c(=O)c1O", "target": "HCV polymerase", "read-out": "IC50", "value": "<25 µM"}
{"compound": "Cc1cc(-c2nc3cc(C(=O)O)ccc3n2C2CCCCC2)cc2ccc(-c3ccccc3-c3ccccc3)nc12", "target": "NS5B polymerase", "read-out": "inhibition", "dose": "33 µM", "value": "93.32%"}
{"compound": "CCC(=O)N(Cc1ccc(Cl)cc1)c1cc(-c2ccccc2)sc1C(=O)O", "target": "NS3 ATPase", "read-out": "IC50", "value": "<5 µM"}
{"compound": "CNC(=O)c1c(-c2ccc(F)cc2)oc2cc(N(Cc3nsc(Cl)n3)S(C)(=O)=O)c(OC(C)C)cc12", "target": "Nonstructural protein 5B", "read-out": "IC50", "value": "≤0.5 µM"}
{"compound": "O=C(O)c1cc2nc(-c3cccc(Cl)c3)cc(-c3cc(Cl)cc(Cl)c3)n2n1", "target": "RNA-dependent RNA polymerase", "read-out": "IC50", "value": ">10 µM"}
{"compound": "O=C(O)c1ccc2c(c1)nc(-c1ccc3nc(-c4ccccc4)cc(Oc4ccc5ccc(O)cc5c4)c3c1)n2C1CCCCC1", "target": "NS5B polymerase", "read-out": "inhibition", "dose": "33 µM", "value": "100%"}
{"compound": "O=c1c(C2CCCCC2)c(-c2ccc(OCc3ccccc3)cc2)nc2cc(-c3nn[nH]n3)[nH]n12", "target": "RNA-dependent RNA polymerase", "read-out": "IC50", "value": "<1 µM"}
{"compound": "O=C(NCc1ccon1)Nc1cscc1-c1nc(C(=O)O)c(O)c(=O)[nH]1", "target": "HCV polymerase", "read-out": "IC50", "value": "<25 µM"}
{"compound": "C[C@@H](O)C(NC(=O)c1ccc2c(c1)nc(-c1ccc3nc(-c4ccccc4)cnc3c1)n2C1CCCCC1)C(=O)O", "target": "NS5B polymerase", "read-out": "inhibition", "dose": "100 µM", "value": "97.87%"}
{"compound": "CCNc1cc2oc(-c3ccc(F)cc3)c(C(=O)NC)c2c(Cl)c1OC", "target": "Nonstructural protein 5B", "read-out": "IC50", "value": "≤0.5 µM"}
{"compound": "CCOC(=O)c1cc2nc(-c3ccc(F)cc3)cc(-c3ccc(F)cc3)n2n1", "target": "RNA-dependent RNA polymerase", "read-out": "IC50", "value": ">10 µM"}
{"compound": "CC(C)=CCN(C(=O)c1ccc(Cl)cc1Cl)c1cc(-c2ccccc2)sc1C(=O)O", "target": "NS3 ATPase", "read-out": "IC50", "value": "<5 µM"}
{"compound": "COc1ccc(-c2ccc(Cl)cc2)c(-c2ccc3cc(-c4nc5cc(C(=O)O)ccc5n4C4CCCCC4)ccc3n2)c1", "target": "NS5B polymerase", "read-out": "inhibition", "dose": "100 µM", "value": "100%"}
{"compound": "CC(C)(C)OC(=O)Nc1ccsc1-c1nc(C(=O)O)c(O)c(=O)[nH]1", "target": "HCV polymerase", "read-out": "IC50", "value": "<25 µM"}
{"compound": "CCOC(=O)c1cnn2c(-c3ccc(Cl)cc3)cc(-c3ccccc3)nc12", "target": "RNA-dependent RNA polymerase", "read-out": "IC50", "value": ">10 µM"}
{"compound": "O=C(Nc1ccc(OC(F)(F)F)cc1)Nc1cccc(-c2nc(C(=O)O)c(O)c(=O)[nH]2)c1", "target": "HCV polymerase", "read-out": "IC50", "value": "<100 µM"}
{"compound": "O=C(N[C@@H](Cc1cnc[nH]1)C(=O)O)c1cc2nc(-c3ccco3)c(C3CCCCC3)c(=O)n2[nH]1", "target": "RNA-dependent RNA polymerase", "read-out": "IC50", "value": "<1 µM"}
{"compound": "N#Cc1cccc(C(=O)Nc2ccsc2-c2nc(C(=O)O)c(O)c(=O)[nH]2)c1", "target": "HCV polymerase", "read-out": "IC50", "value": "<25 µM"}
{"compound": "COc1ccc(-c2cc(-c3cccc(Cl)c3)nc3cc(C(=O)O)nn23)cc1", "target": "RNA-dependent RNA polymerase", "read-out": "IC50", "value": ">10 µM"}
{"compound": "O=C(O)c1sc(-c2ccc(F)cc2)cc1NS(=O)(=O)c1ccccn1", "target": "NS3 ATPase", "read-out": "IC50", "value": "<5 µM"}
{"compound": "COc1ccc(-c2ccccc2OC)c(-c2ccc3cc(-c4nc5cc(C(=O)O)ccc5n4C4CCCCC4)ccc3n2)c1", "target": "NS5B polymerase", "read-out": "inhibition", "dose": "33 µM", "value": "101%"}
{"compound": "Cc1cccc(CNC(=O)Nc2cccc(-c3nc(C(=O)O)c(O)c(=O)[nH]3)c2)c1", "target": "HCV polymerase", "read-out": "IC50", "value": "<100 µM"}
{"compound": "O=C(O)c1ccc2c(c1)nc(-c1ccc3nc(-c4ccc(Cl)c(Cl)c4)ccc3c1)n2C1CCCCC1", "target": "NS5B polymerase", "read-out": "inhibition", "dose": "100 µM", "value": "98.89%"}
{"compound": "COc1cccc(COc2cccc(-c3cnc4c(-c5nn[nH]n5)cnn4c3C3CCCCC3)c2)c1", "target": "RNA-dependent RNA polymerase", "read-out": "IC50", "value": "1–10 µM"}
{"compound": "CNC(=O)c1c(-c2ccc(F)cc2)oc2cc(Br)c(OC(C)C)cc12", "target": "Nonstructural protein 5B", "read-out": "IC50", "value": "≤0.5 µM"}
{"compound": "O=C1COc2ccc(-c3ccc4cc(-c5nc6cc(C(=O)O)ccc6n5C5CCCCC5)ccc4n3)cc2N1", "target": "NS5B polymerase", "read-out": "inhibition", "dose": "33 µM", "value": "98.78%"}